PubChem BioAssay AID624099, ICCB-Longwood, 2012
In all, the deposit lists about 21,000 reagents; this is a random part of them. 497 of them (2.4%) were called active. 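Higher z means weaker E2 silencing; only reporter increases were scored, and knock-downs that hurt cell survival may mask genuine repressor factors.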 Unmarked entries are inactive.

Screen: 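Knock-downs relieving repression by E2 of an HPV18 LCR luciferase reporter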 (primary screen)
Cells: human C33A cervical carcinoma cells (HPV-negative) stably expressing BPV1 E2 and an HPV18 LCR luciferase reporter
Reagents: siRNA pool against human genes, 40 nM
Time to read-out: 72 h
Read-out: 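Per-well luciferase luminescence, z-scored on each plate against the plate mean and SD with control wells left out, then averaged across three replicate plates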
Direction: mean z-score and z-score: higher = stronger reporter signal, weaker E2 silencing
Rule for the call: 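Mean z ≥ 2 together with z ≥ 2 in two or more of the three replicates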

| gene | mean z-score | z-score, replicate A | z-score, replicate B | z-score, replicate C |
| --- | --- | --- | --- | --- |
| LOC387940 (retired record) | -0.35 | -0.56 | -0.14 | -0.35 |
| C1S | 0.84 | 0.98 | 0.79 | 0.74 |
| LOC402072 (retired record) | -0.11 | -0.32 | 0.21 | -0.2 |
| GEMIN4 | 0.03 | -0.07 | -0.15 | 0.32 |
| LOC285253 (retired record) | 0.48 | 0.66 | 0.4 | 0.38 |
| LOC203604 (retired record) | -0.67 | -1.07 | -0.54 | -0.39 |
| NAXD | -1.36 | -1.48 | -1.54 | -1.06 |
| H4C5 | 0.15 | 0.14 | 0.11 | 0.19 |
| TMLHE | 0.42 | 0.47 | 0.28 | 0.52 |
| GPR39 | 1.11 | 0.89 | 1.49 | 0.96 |
| HAMP | 0.04 | 0.09 | 0.28 | -0.26 |
| LTBP1 | -0.14 | -0.19 | -0.13 | -0.09 |
| SEH1L | -0.75 | -0.59 | -0.97 | -0.7 |
| SIRPB2 | 0.22 | 0.06 | 0.01 | 0.59 |
| KRT19 | -0.11 | -0.06 | -0.23 | -0.02 |
| LOC401945 (retired record) | -0.22 | 0.01 | -0.15 | -0.53 |
| MDM4 | 0.01 | 0.18 | -0.11 | -0.02 |
| BRMS1 | -1.43 | -1.24 | -1.54 | -1.53 |
| ARL2BP | -0.57 | -0.43 | -0.83 | -0.44 |
| CCDC177 | -0.21 | -0.18 | -0.26 | -0.2 |
| SYT15 | 1.76 | 2.02 | 1.21 | 2.07 |
| MORF4 | 1.07 | 0.94 | 1.31 | 0.96 |
| DSG3 | 0.01 | 0.51 | -0.12 | -0.37 |
| SCPEP1 | 0.27 | -0.34 | 0.26 | 0.88 |
| TMEM50A | 1.02 | 0.89 | 1.13 | 1.04 |
| ERP29 | -0.93 | -0.74 | -1.23 | -0.81 |
| MATN1 | 0.41 | 0.24 | 0.46 | 0.55 |
| UGT1A10 | -0.85 | -0.95 | -0.98 | -0.62 |
| RPA4 | -1.06 | -0.73 | -1.27 | -1.19 |
| ATP1B1 | 1.58 | 1.47 | 1.72 | 1.54 |
| FLYWCH1L (retired record) | 2.27 (active) | 2.03 | 2.33 | 2.47 |
| ZNF827 | -0.54 | -0.41 | -0.73 | -0.47 |
| SCAND1 | 0.22 | 0.53 | 0.23 | -0.11 |
| RGL2 | 2.39 (active) | 2.3 | 2.48 | 2.38 |
| KHSRP | -0.99 | -0.46 | -1.17 | -1.33 |
| ADAT3 | 1.3 | 0.85 | 1.61 | 1.46 |
| STX1B | 0.26 | 0.48 | 0.19 | 0.13 |
| LOC401621 (retired record) | 0.67 | 0.35 | 0.6 | 1.05 |
| SPOCD1 | -0.09 | -0.29 | -0.11 | 0.14 |
| SLC33A2 | 2.62 (active) | 2.63 | 2.77 | 2.45 |
| SSX3 | 1.06 | 0.95 | 1.15 | 1.09 |
| OR1J2 | 0.5 | 0.43 | 0.3 | 0.77 |
| LOC388160 (retired record) | 0.34 | 0.61 | 0 | 0.42 |
| NCK1 | 0.54 | 0.36 | 0.6 | 0.66 |
| GPX6 | -0.08 | -0.39 | 0.33 | -0.19 |
| LINC00324 | 0.23 | 0.35 | 0.18 | 0.17 |
| ERAS | 1.1 | 0.84 | 1.3 | 1.15 |
| GART | 0.01 | 0.69 | -0.14 | -0.52 |
| ZNF548 | -1.49 | -1.83 | -1.14 | -1.49 |
| PHF5A | -2.84 | -3.13 | -2.59 | -2.81 |
| LOC402280 (retired record) | -0.28 | -0.3 | -0.19 | -0.35 |
| TRAF3 | -0.9 | -0.6 | -1.12 | -0.96 |
| PTGFRN | 0.31 | 0.19 | 0.46 | 0.29 |
| FFAR4 | -1.55 | -1.68 | -1.52 | -1.46 |
| GAREM2 | 0.6 | 0.33 | 0.68 | 0.79 |
| FAM111A | 0.43 | 0.46 | 0.11 | 0.71 |
| TICAM2 | -0.51 | – | -0.41 | -0.61 |

Targets above whose gene name begins with H or h (2):
| gene | mean z-score | z-score, replicate A | z-score, replicate B | z-score, replicate C |
| --- | --- | --- | --- | --- |
| H4C5 | 0.15 | 0.14 | 0.11 | 0.19 |
| HAMP | 0.04 | 0.09 | 0.28 | -0.26 |
